Test: general procedure: Fmoc solid-phase peptide synthesis; Fmoc-protected Rink amide MBHA polystyrene resin (0.71 mmol/g loading); HCTU/DIPEA
Settings: whole synthesis; for final HPLC purity: Analytical HPLC, HPLC/MS; for isolated yield: overall

In the case of “(2-(2-oxobenzo[cd]indol-1(2H)-yl)-CH2-CO-NH-PKIIQSVGI-NH2”, the “final HPLC purity” value is reported as 97%, the isolated yield is reported as 18% and the isolated mass (scale 0.11 mmol) is reported as 18 mg.

For “(Ph-CH2)2(Me)N^+-(CH2)2-O-(CH2)2-O-CH2-CO-NH-PKIIQSVGI-NH2 I^−”, the “final HPLC purity” value was 98%, the isolated yield was 8% and the isolated mass (scale 0.073 mmol) was 7.9 mg.

With “(Ph-CH2)2N-(CH2)2-O-(CH2)2-O-CH2-CO-NH-PKIIQSVGI-NH2” the “final HPLC purity” value was 95%, the isolated yield (run 1) was 9% and the isolated yield (run 2) was 21%. For the same substance, the isolated mass (scale 0.03 mmol) was 3.2 mg and the isolated mass (scale 0.073 mmol) was 20 mg.

For “(Ph-CH2)(Me)2N^+-(CH2)2-O-(CH2)2-O-CH2-CO-NH-PKIIQSVGI-NH2 I^−”, the “final HPLC purity” value was 99%, the isolated yield was 25% and the isolated mass (scale 0.073 mmol) was 22 mg.

With “Acridine-CH2-CO-NH-(CH2)2-O-(CH2)2-O-CH2-CO-NH-PKIIQSVGI-NH2” the “final HPLC purity” value was 98%, the isolated yield was 10% and the isolated mass (scale 0.06 mmol) was 6.2 mg.

In the case of “Adamantyl-CH2-CO-NH-(CH2)2-O-(CH2)2-O-CH2-CO-NH-PKIIQSVGI-NH2”, the “final HPLC purity” value is reported as 95%, the isolated yield is reported as 7% and the isolated mass (scale 0.06 mmol) is reported as 4.7 mg.

With “Biphenyl-CH2-CO-NH-(CH2)2-O-(CH2)2-O-CH2-CO-NH-PKIIQSVGI-NH2” the “final HPLC purity” value was 97%, the isolated yield was 42% and the isolated mass (scale 0.07 mmol) was 107.7 mg.

With “CH3-CH2-CO-NH-(CH2)2-O-(CH2)2-O-CH2-CO-NH-PKIIQSVGI-NH2” the “final HPLC purity” value was 98%, the isolated yield was 12% and the isolated mass (scale 0.07 mmol) was 14.4 mg.

In the case of “Naphthyl-CH2-CO-NH-(CH2)2-O-(CH2)2-O-CH2-CO-NH-PKIIQSVGI-NH2”, the “final HPLC purity” value is reported as 96%, the isolated yield is reported as 26% and the isolated mass (scale 0.07 mmol) is reported as 22.4 mg.

For Ph-CH2-CO-NH-(CH2)2-CO-NH-PKIIQSVGI-NH2, the “final HPLC purity” value was 97%, the isolated yield was 27% and the isolated mass (scale 0.11 mmol) was 37 mg.

With “Ph-CH2-CO-NH-(CH2)2-O-(CH2)2-O-CH2-CO-NH-PKIIQSVGI-NH2” the “final HPLC purity” value was 99%, the isolated yield was 39% and the isolated mass (scale 0.11 mmol) was 156.0 mg.

With “Ph-CH2-CO-NH-(CH2)2-O-CH2-CO-NH-PKIIQSVGI-NH2” the “final HPLC purity” value was 87%, the isolated yield was 25% and the isolated mass (scale 0.12 mmol) was 35 mg.

With Ph-CH2-CO-NH-PKIIQSVGI-NH2 the “final HPLC purity” value was 92%, the isolated yield was 7% and the isolated mass (scale 0.09 mmol) was 7.16 mg.

With “Ph-CH2-NH-(CH2)2-O-(CH2)2-O-CH2-CO-NH-PKIIQSVGI-NH2” the “final HPLC purity” value was 98%, the isolated yield was 32% and the isolated mass (scale 0.03 mmol) was 10.4 mg.

Source: PMC8308777 (Pharmaceuticals, 2021)
